Record: PubChem BioAssay AID624099 (ICCB-Longwood, 2012)

Aim: 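Human genes that papillomavirus E2 requires to repress the HPV18 LCR promoter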 (primary screen)
Cells: human C33A cervical carcinoma cells (HPV-negative) stably expressing BPV1 E2 and an HPV18 LCR luciferase reporter
Reagents: siRNA pool against human genes, 40 nM
Duration: 72 h
Measurement: 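HPV18 LCR reporter light per well, converted to plate-wise z-scores that exclude control wells, and averaged over triplicate plates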
Reading the numbers: mean z-score and z-score: higher = stronger reporter signal, weaker E2 silencing
Hit rule: 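Mean z ≥ 2 together with z ≥ 2 in two or more of the three replicates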
This is one part, drawn at random, of about 21,000 reagents tested. 497 of all reagents (2.4%) count as active. 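Higher z means weaker E2 silencing; only reporter increases were scored, and knock-downs that hurt cell survival may mask genuine repressor factors.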 Reagent sequences are not shown.

| Gene | mean z-score | z-score, replicate A | z-score, replicate B | z-score, replicate C | call |
| --- | --- | --- | --- | --- | --- |
| CHMP2A | 0.05 | -0.41 | 0.21 | 0.34 | inactive |
| LINC02232 | 0.12 | 1.26 | -0.46 | -0.44 | inactive |
| IP6K1 | -0.67 | -0.83 | -0.67 | -0.52 | inactive |
| JPH3 | -0.79 | -0.71 | -0.92 | -0.74 | inactive |
| TMOD3 | -1.33 | -1.11 | -1.31 | -1.55 | inactive |
| KHDRBS2 | -0.98 | -0.88 | -1.1 | -0.95 | inactive |
| KEAP1 | -0.52 | -0.41 | -0.53 | -0.63 | inactive |
| VSTM1 | 3.72 | 3.52 | 3.75 | 3.89 | active |
| AKAP8 | 1.12 | 1.03 | 0.89 | 1.44 | inactive |
| CEP70 | -1.01 | -1.04 | -1.09 | -0.92 | inactive |
| BCAR4 | 0.53 | 0.32 | 1.03 | 0.23 | inactive |
| USF3 | 1.39 | 1.32 | 1.45 | – | inactive |
| CAPNS1 | 0.58 | 0.36 | 0.87 | 0.49 | inactive |

Called active (from the list above):
| Gene | mean z-score | z-score, replicate A | z-score, replicate B | z-score, replicate C | call |
| --- | --- | --- | --- | --- | --- |
| VSTM1 | 3.72 | 3.52 | 3.75 | 3.89 | active |

Additional results:
| Gene | mean z-score | z-score, replicate A | z-score, replicate B | z-score, replicate C | call |
| --- | --- | --- | --- | --- | --- |
| VWC2L | -0.74 | -1.08 | -0.92 | -0.23 | inactive |
| DLX2 | -1.47 | -1.42 | -1.65 | -1.33 | inactive |
| LOC388477 (retired record) | -1.03 | -1.07 | -0.91 | -1.11 | inactive |
| PARD3 | -1.07 | -0.8 | -1.17 | -1.25 | inactive |
| OR9H1 | -0.32 | -0.03 | -0.28 | -0.66 | inactive |
| PLEKHH3 | -1 | -0.61 | -1.04 | -1.34 | inactive |
| KLRK1 | 0.07 | 0.05 | 0.14 | 0.01 | inactive |
| INMT | -1.52 | -1.68 | -1.53 | -1.33 | inactive |
| RABGGTB | 0.75 | 1.29 | 0.69 | 0.28 | inactive |
| CALHM5 | 0.44 | 0.43 | 0.74 | 0.16 | inactive |
